Reference: patent publication US20060167238
For at least one entry, the source does not settle the construct or the ends of the probe. For part of these data: Tags and fusion partners may be left off the protein sequences shown.

What was measured:
Assay in all cases: EMSA
SirR = biological target: T1, SirR (UniProt Q5HRA0); conditions: purified recombinant protein
T1 sequence (looked up, limits assumed): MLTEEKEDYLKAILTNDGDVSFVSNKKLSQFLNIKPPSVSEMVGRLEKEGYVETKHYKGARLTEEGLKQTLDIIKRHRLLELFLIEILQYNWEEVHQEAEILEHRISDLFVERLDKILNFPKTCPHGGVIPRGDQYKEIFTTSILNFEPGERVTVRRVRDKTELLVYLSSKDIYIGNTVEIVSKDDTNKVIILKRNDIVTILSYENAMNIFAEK

[1] = biological target: EfaR (Enterococcus faecalis) (UniProt Q93CH5); conditions: purified recombinant protein; protein details: untagged (pQN vector)
[2] = biological target: DtxR (Corynebacterium diphtheriae) (UniProt P0DJL7); conditions: purified recombinant protein

Measured: binding result

GCATTGATTTCAGAGCACCCTTATAATTAGGATAGCTTTACCTAATTATTTTATGAG (double strand) [toxPO]
binds: all assays above
